Experimental data taken from patent US20240109955A1 (published 2024).

Key:
[1] = target: SARS-CoV-2 spike protein, Omicron sublineage XBB1.5 (SARS-CoV-2, UniProt P0DTC2 14-1273); assay: cell-based or functional assay
[2] = target: SARS-CoV-2 spike protein, Omicron sublineage XBB (SARS-CoV-2, UniProt P0DTC2 14-1273); assay: cell-based or functional assay

| Binder | IC50, pseudovirus neutralization [1] | IC80, pseudovirus neutralization [1] | IC50, pseudovirus neutralization [2] | IC80, pseudovirus neutralization [2] |
| --- | --- | --- | --- | --- |
| MX1042 (bispecific antibody) DTVMTQSPLSLPVTPGEPASISCRSSQSLLNSNGYNYLDWYVQKPGQSPQLLIYLGSNRASGVPDRFSGSGSGTDFTLKISRVEAEDVGVYYCMQPLQTPLFTFGPGTKVEIKGGSSGEIVLTQSPGTLSLSPGETATLSCRASQSFSSDLAWYQQKPGQAPRLLIYGASSRATGIPDRFSGSGSGTDFTLTISRLEPADFAVYYCQQYGSSPPVTFGGGTKVEIKGGGGSGGSGSGGGGSASGSGEVQLVESGGGLIQPGGSLRLSCAASGVIVSYNYMNWVRQAPGKGLEWVSVIYSGGSTFYADSVRGRFTISRDNSKNTLYLQMNSLRAEDTAVYYCARDLGPAGAFDIWGLGTMVTVSSGGSSGQVTLRESGPALVKPTQTLTLTCTFSGFSLSTRGVCVSWIRQPPGKALEWLAFIDWDDDKYYNTSLKTRLTISKDTSKNQVVLTMTNVHPVDTATYYCARISSHHGSSWCTTFDYWGQGALVTVSAASGGSGDKTHTCPPCPAPELLGGPSVFLFPPKPKDTLMISRTPEVTCVVVDVSHEDPEVKFNWYVDGVEVHNAKTKPREEQYNSYVVSVLTVLHQDWLNGKEYKCKVSNKALPAPIEKTISKAKGQPREPQVYTLPPSRDELTKNQVSLTCLVKGFYPSDIAVEWESNGQPENNYKTTPPVLDSDGSFFKKLTVDKSRWQQGNVFSCSVLHEALHSHYTQKSLSLSPG | 41.8 nM | 81.5 nM | 7.55 nM | 16.5 nM |
| MX1043 (bispecific antibody) EIVLTQSPGTLSLSPGETATLSCRASQSFSSDLAWYQQKPGQAPRLLIYGASSRATGIPDRFSGSGSGTDFTLTISRLEPADFAVYYCQQYGSSPPVTFGGGTKVEIKGGSSGQTVVTQEPSFSVSPGGTVTLTCGLSSGSVSTAYFPSWYQQTPGQAPRTLIYGTNTRSSGVPDRFSGSILGNKAALTITGAQADDESDYYCVLYMGRGIVVFGGGTKLTVLGGGGSGGSGSGGGGSASGSGQVQLVESGGGVVQPGRSLRLSCAASGFTLSSYGMHWVRQAPGKGLEWVAVISYDGSNKYYVDSVKGRFTISRDNSKNTLYLQMNSLRAEDTAVYYCRWAYWELLPDYYYGMDVWGQGTTVTVSSGGSSGEVQLVESGGGLIQPGGSLRLSCAASGVIVSYNYMNWVRQAPGKGLEWVSVIYSGGSTFYADSVRGRFTISRDNSKNTLYLQMNSLRAEDTAVYYCARDLGPAGAFDIWGLGTMVTVSSASGGSGDKTHTCPPCPAPELLGGPSVFLFPPKPKDTLMISRTPEVTCVVVDVSHEDPEVKFNWYVDGVEVHNAKTKPREEQYNSYVVSVLTVLHQDWLNGKEYKCKVSNKALPAPIEKTISKAKGQPREPQVYTLPPSRDELTKNQVSLTCLVKGFYPSDIAVEWESNGQPENNYKTTPPVLDSDGSFFKKLTVDKSRWQQGNVFSCSVLHEALHSHYTQKSLSLSPG | 68.7 nM | 155 nM | 2.17 nM | 7.05 nM |
| MX1069 (other) chain 1: QTVVTQEPSFSVSPGGTVTLTCGLSSGSVSTAYFPSWYQQTPGQAPRTLIYGTNTRSSGVPDRFSGSILGNKAALTITGAQADDESDYYCVLYMGRGIVVFGGGTKLTVLGGSSGEIVLTQSPGTLSLSPGETATLSCRASQSFSSDLAWYQQKPGQAPRLLIYGASSRATGIPDRFSGSGSGTDFTLTISRLEPADFAVYYCQQYGSSPPVTFGGGTKVEIKGGGGSGGSGSGGGGSASGSGEVQLVESGGGLIQPGGSLRLSCAASGVIVSYNYMNWVRQAPGKGLEWVSVIYSGGSTFYADSVRGRFTISRDNSKNTLYLQMNSLRAEDTAVYYCARDLGPAGAFDIWGLGTMVTVSSGGSSGQVQLVESGGGVVQPGRSLRLSCAASGFTLSSYGMHWVRQAPGKGLEWVAVISYDGSNKYYVDSVKGRFTISRDNSKNTLYLQMNSLRAEDTAVYYCRWAYWELLPDYYYGMDVWGQGTTVTVSSASGGSGDKTHTCPPCPAPELLGGPSVFLFPPKPKDTLMISRTPEVTCVVVDVSHEDPEVKFNWYVDGVEVHNAKTKPREEQYNSYVVSVLTVLHQDWLNGKEYKCKVSNKALPAPIEKTISKAKGQPREPQVYTLPPCRDELTKNQVSLWCLVKGFYPSDIAVEWESNGQPENNYKTTPPVLDSDGSFFKKLTVDKSRWQQGNVFSCSVLHEALHSHYTQKSLSLSPG chain 2: EIVLTQSPGTLSLSPGETATLSCRASQSFSSDLAWYQQKPGQAPRLLIYGASSRATGIPDRFSGSGSGTDFTLTISRLEPADFAVYYCQQYGSSPPVTFGGGTKVEIKGGSSGDTVMTQSPLSLPVTPGEPASISCRSSQSLLNSNGYNYLDWYVQKPGQSPQLLIYLGSNRASGVPDRFSGSGSGTDFTLKISRVEAEDVGVYYCMQPLQTPLFTFGPGTKVEIKGGGGSGGSGSGGGGSASGSGQVTLRESGPALVKPTQTLTLTCTFSGFSLSTRGVCVSWIRQPPGKALEWLAFIDWDDDKYYNTSLKTRLTISKDTSKNQVVLTMTNVHPVDTATYYCARISSHHGSSWCTTFDYWGQGALVTVSAGGSSGEVQLVESGGGLIQPGGSLRLSCAASGVIVSYNYMNWVRQAPGKGLEWVSVIYSGGSTFYADSVRGRFTISRDNSKNTLYLQMNSLRAEDTAVYYCARDLGPAGAFDIWGLGTMVTVSSASGGSGDKTHTCPPCPAPELLGGPSVFLFPPKPKDTLMISRTPEVTCVVVDVSHEDPEVKFNWYVDGVEVHNAKTKPREEQYNSYVVSVLTVLHQDWLNGKEYKCKVSNKALPAPIEKTISKAKGQPREPQVCTLPPSRDELTKNQVSLSCAVKGFYPSDIAVEWESNGQPENNYKTTPPVLDSDGSFFLVSKLTVDKSRWQQGNVFSCSVLHEALHSHYTQKSLSLSPG | 34.8 nM | 65.5 nM | 2.48 nM | 5.2 nM |
| MX1055 (other) chain 1: EIVMTQSPAILSVSPGERATLSCRASQSVAINLAWYQQKPGQAPRLLIYAASSRATGIPGRFSGSGSETNFTLTISSLQSGDFAVYYCQQYITWPPSYTFGQGTKLEIKGGSSGDTVMTQSPLSLPVTPGEPASISCRSSQSLLNSNGYNYLDWYVQKPGQSPQLLIYLGSNRASGVPDRFSGSGSGTDFTLKISRVEAEDVGVYYCMQPLQTPLFTFGPGTKVEIKGGGGSGGSGSGGGGSASGSGQVTLRESGPALVKPTQTLTLTCTFSGFSLSTRGVCVSWIRQPPGKALEWLAFIDWDDDKYYNTSLKTRLTISKDTSKNQVVLTMTNVHPVDTATYYCARISSHHGSSWCTTFDYWGQGALVTVSAGGSSGEVQLVESGGALIQPGGSLRLSCAASGIIVSANYMSWVRQAPGKGLEWVSVIYSGGSTFYADSVKGRFTISRDNSKNTLYLEMNSLRAEDTAVYYCARDAPILGVSDWGQGTLVTVSSASGGSGDKTHTCPPCPAPELLGGPSVFLFPPKPKDTLMISRTPEVTCVVVDVSHEDPEVKFNWYVDGVEVHNAKTKPREEQYNSYVVSVLTVLHQDWLNGKEYKCKVSNKALPAPIEKTISKAKGQPREPQVYTLPPCRDELTKNQVSLWCLVKGFYPSDIAVEWESNGQPENNYKTTPPVLDSDGSFFKKLTVDKSRWQQGNVFSCSVLHEALHSHYTQKSLSLSPG chain 2: DTVMTQSPLSLPVTPGEPASISCRSSQSLLNSNGYNYLDWYVQKPGQSPQLLIYLGSNRASGVPDRFSGSGSGTDFTLKISRVEAEDVGVYYCMQPLQTPLFTFGPGTKVEIKGGSSGQTVVTQEPSFSVSPGGTVTLTCGLSSGSVSTAYFPSWYQQTPGQAPRTLIYGTNTRSSGVPDRFSGSILGNKAALTITGAQADDESDYYCVLYMGRGIVVFGGGTKLTVLGGGGSGGSGSGGGGSASGSGQVQLVESGGGVVQPGRSLRLSCAASGFTLSSYGMHWVRQAPGKGLEWVAVISYDGSNKYYVDSVKGRFTISRDNSKNTLYLQMNSLRAEDTAVYYCRWAYWELLPDYYYGMDVWGQGTTVTVSSGGSSGQVTLRESGPALVKPTQTLTLTCTFSGFSLSTRGVCVSWIRQPPGKALEWLAFIDWDDDKYYNTSLKTRLTISKDTSKNQVVLTMTNVHPVDTATYYCARISSHHGSSWCTTFDYWGQGALVTVSAASGGSGDKTHTCPPCPAPELLGGPSVFLFPPKPKDTLMISRTPEVTCVVVDVSHEDPEVKFNWYVDGVEVHNAKTKPREEQYNSYVVSVLTVLHQDWLNGKEYKCKVSNKALPAPIEKTISKAKGQPREPQVCTLPPSRDELTKNQVSLSCAVKGFYPSDIAVEWESNGQPENNYKTTPPVLDSDGSFFLVSKLTVDKSRWQQGNVFSCSVLHEALHSHYTQKSLSLSPG | 23.6 nM | 67.9 nM | 8.39 nM | 32.7 nM |
| MX1089 (other) chain 1: QTVVTQEPSFSVSPGGTVTLTCGLSSGSVSTAYFPSWYQQTPGQAPRTLIYGTNTRSSGVPDRFSGSILGNKAALTITGAQADDESDYYCVLYMGRGIVVFGGGTKLTVLGGSSGEIVMTQSPAILSVSPGERATLSCRASQSVAINLAWYQQKPGQAPRLLIYAASSRATGIPGRFSGSGSETNFTLTISSLQSGDFAVYYCQQYITWPPSYTFGQGTKLEIKGGGGSGGSGSGGGGSASGSGEVQLVESGGALIQPGGSLRLSCAASGIIVSANYMSWVRQAPGKGLEWVSVIYSGGSTFYADSVKGRFTISRDNSKNTLYLEMNSLRAEDTAVYYCARDAPILGVSDWGQGTLVTVSSGGSSGQVQLVESGGGVVQPGRSLRLSCAASGFTLSSYGMHWVRQAPGKGLEWVAVISYDGSNKYYVDSVKGRFTISRDNSKNTLYLQMNSLRAEDTAVYYCRWAYWELLPDYYYGMDVWGQGTTVTVSSASGGSGDKTHTCPPCPAPELLGGPSVFLFPPKPKDTLMISRTPEVTCVVVDVSHEDPEVKFNWYVDGVEVHNAKTKPREEQYNSYVVSVLTVLHQDWLNGKEYKCKVSNKALPAPIEKTISKAKGQPREPQVYTLPPCRDELTKNQVSLWCLVKGFYPSDIAVEWESNGQPENNYKTTPPVLDSDGSFFKKLTVDKSRWQQGNVFSCSVLHEALHSHYTQKSLSLSPG chain 2: DTVMTQSPLSLPVTPGEPASISCRSSQSLLNSNGYNYLDWYVQKPGQSPQLLIYLGSNRASGVPDRFSGSGSGTDFTLKISRVEAEDVGVYYCMQPLQTPLFTFGPGTKVEIKGGSSGEIVLTQSPGTLSLSPGERATLSCRASQSVSSSYLAWYQQKPGQAPRLLIYSASSRATGIPDRFSGSGSGTDFTLTISRLEPEDFAVYFCQQYVGLTGWTFGQGTKVEIKGGGGSGGSGSGGGGSASGSGQMQLVQSGPEVKKPGTSVKVSCKASGFTFTSSAVQWVRQRQRLEWIGWIVVGSGNTNYAQKFQERVTITRDMSTSTAYMELSSLRSEDTAVYYCAAPNCSNVVCYDGFDIWGQGTMVTVSSGGSSGQVTLRESGPALVKPTQTLTLTCTFSGFSLSTRGVCVSWIRQPPGKALEWLAFIDWDDDKYYNTSLKTRLTISKDTSKNQVVLTMTNVHPVDTATYYCARISSHHGSSWCTTFDYWGQGALVTVSAASGGSGDKTHTCPPCPAPELLGGPSVFLFPPKPKDTLMISRTPEVTCVVVDVSHEDPEVKFNWYVDGVEVHNAKTKPREEQYNSYVVSVLTVLHQDWLNGKEYKCKVSNKALPAPIEKTISKAKGQPREPQVCTLPPSRDELTKNQVSLSCAVKGFYPSDIAVEWESNGQPENNYKTTPPVLDSDGSFFLVSKLTVDKSRWQQGNVFSCSVLHEALHSHYTQKSLSLSPG | 52.3 nM | 148 nM | 10.7 nM | 28.5 nM |
